Pooled drug test results. Numbers come from NIAID ChemDB, via PubChem.

All rows: toxicity to cultured cells; cell line: H9; measure: CC50

CCn is the concentration with n% toxicity to the cells. Lines come from different laboratories, so protocols vary.

{"structure": "O=c1cc(-c2ccccc2)sc2ccc(O)cc12", "result": "40 µg/mL"}
{"structure": "COc1cc2c(c3cc(O)ccc3n2C)c2c(Cl)nccc12", "result": "5 µg/mL"}
{"structure": "COc1cc2c(c(OC)c1O)-c1ccc(OC)c(=O)cc1[C@@H](NC(C)=O)CC2", "result": "0.26 µM"}
{"structure": "Oc1ccc(CC2NCCc3cc(O)c(O)cc32)cc1O", "result": "19.69 µg/mL"}
{"structure": "Cc1cn([C@H]2C[C@H](N=[N+]=[N-])[C@@H](CO)O2)c(=O)[nH]c1=O", "result": "500 µg/mL"}
{"structure": "Cc1cn([C@H]2C[C@H](N=[N+]=[N-])[C@@H](CO)O2)c(=O)[nH]c1=O", "result": "500 µg/mL"}
{"structure": "O=C(O[C@@H]1Cc2c(O)cc(O)cc2O[C@@H]1c1ccc(O)cc1)c1cc(O)c(O)c(O)c1", "result": "50 µg/mL"}
{"structure": "Cc1cn([C@H]2C[C@H](N=[N+]=[N-])[C@@H](CO)O2)c(=O)[nH]c1=O", "result": ">60 µM"}
{"structure": "O=C(O[C@@H]1Cc2c(O)cc(O)c(Cc3c(O)cc(O)c4c3O[C@H](c3cc(O)c(O)c(O)c3)[C@H](OC(=O)c3cc(O)c(O)c(O)c3)C4)c2O[C@@H]1c1cc(O)c(O)c(O)c1)c1cc(O)c(O)c(O)c1", "result": "45 µg/mL"}
{"structure": "COc1cc(C(=O)N[C@H]2CCc3cc(OC)c(OC)c(OC)c3-c3ccc(C(=O)c4cc(OC)c(OC)c(OC)c4)c(=O)cc32)cc(OC)c1OC", "result": "1.4 µM"}
{"structure": "Nc1cccc2sc(-c3ccccc3)cc(=O)c12", "result": "50 µg/mL"}
{"structure": "CCc1cc(=O)c2ccc3c(c2o1)[C@@H](OC(=O)C12CCC(C)(C(=O)O1)C2(C)C)[C@@H](OC(=O)C(C)C)C(C)(C)O3", "result": ">46.3 µM"}
{"structure": "c1cc(CN2CCCNCCNCCCNCC2)ccc1CN1CCCNCCNCCCNCC1", "result": ">10 µM"}
{"structure": "CC(=O)O[C@@H]1[C@@H]2[C@@H](OC(C)=O)[C@@]34O[C@@]2(C)COC(=O)c2cccnc2[C@@H](C)[C@H](C)C(=O)O[C@@H]([C@H](OC(C)=O)[C@H](OC(C)=O)[C@@]3(COC(=O)c2ccoc2)[C@@H]1OC(C)=O)C4(C)O", "result": ">100 µg/mL"}
{"structure": "CC(=O)Oc1ccc2c(=O)cc(-c3ccccc3)sc2c1", "result": "45 µg/mL"}
{"structure": "C[n+]1ccc2cc(O)c(O)cc2c1Cc1ccc(O)c(O)c1", "result": ">25 µg/mL"}
{"structure": "COc1c2ccoc2cc2oc(=O)ccc12", "result": "24.8 µg/mL"}
{"structure": "O=C(O[C@H](Cc1c(O)cc(O)cc1O)[C@@H](c1cc(O)c(O)c(O)c1)c1c(O)cc(O)c2c1O[C@H](c1cc(O)c(O)c(O)c1)[C@H](OC(=O)c1cc(O)c(O)c(O)c1)C2)c1cc(O)c(O)c(O)c1", "result": "8 µg/mL"}
{"structure": "Cc1oc2c3c(ccc2c(=O)c1C)OC(C)(C)[C@H](OC(=O)C12CCC(C)(C(=O)O1)C2(C)C)[C@@H]3OC(=O)C12CCC(C)(C(=O)O1)C2(C)C", "result": "11.3 µM"}
{"structure": "CC(C)=CCC/C(C)=C/CN1CCc2cc(O)c(O)cc2[C@H]1C", "result": "20.23 µg/mL"}
{"structure": "CC1(C)OC1COc1c2ccoc2cc2oc(=O)ccc12", "result": "23.4 µg/mL"}
{"structure": "COc1cc2c(c3ccccc3n2C)c2c(NCCN3CCCCC3)nccc12", "result": "0.24 µg/mL"}
{"structure": "Cc1cn([C@H]2C[C@H](N=[N+]=[N-])[C@@H](CO)O2)c(=O)[nH]c1=O", "result": "1875 µM"}
{"structure": "Cc1cn([C@H]2C[C@H](N=[N+]=[N-])[C@@H](CO)O2)c(=O)[nH]c1=O", "result": "2000 µM"}
{"structure": "CC(=O)O[C@@H]1[C@H](OC(=O)C23CCC(C)(C(=O)O2)C3(C)C)c2c(ccc3c(=O)cc(-c4ccccc4)oc23)OC1(C)C", "result": ">44.6 µM"}
{"structure": "CC(C)=CCOc1c2occc2cc2ccc(=O)oc12", "result": ">100 µg/mL"}
{"structure": "Nc1cccc2c(=O)cc(-c3ccccc3)sc12", "result": "15 µg/mL"}
{"structure": "O=C(O[C@H]1Cc2c(O)cc3c(c2O[C@H]1c1cc(O)c(O)c(O)c1)[C@H]1c2c(O)cc(O)cc2O[C@@](c2cc(O)c(O)c(O)c2)(O3)[C@@H]1O)c1cc(O)c(O)c(O)c1", "result": "40 µg/mL"}
{"structure": "CC1(C)O[C@@H]1COc1c2occc2cc2ccc(=O)oc12", "result": "19.8 µg/mL"}
{"structure": "CC(C)=CCC/C(C)=C/C[N@+]12CCc3cc(O)c(O)cc3[C@H]1Cc1ccc(O)c(O)c1C2", "result": "19.84 µg/mL"}
{"structure": "CC(C)[C@H](NC(=O)N(C)Cc1ccccn1)C(=O)N[C@@H](Cc1ccccc1)[C@@H](O)[C@H](O)[C@H](Cc1ccccc1)NC(=O)[C@@H](NC(=O)N(C)Cc1ccccn1)C(C)C", "result": ">100 µM"}
{"structure": "COc1cc2c(c(OC)c1OC)-c1ccc(N(C)C)c(=O)cc1[C@@H](N)CC2", "result": "1.6 µM"}
{"structure": "CCc1cc(=O)c2cc(C(C)(C)C)c3c(c2o1)[C@@H](OC(=O)C12CCC(C)(C(=O)O1)C2(C)C)[C@@H](OC(=O)C12CCC(C)(C(=O)O1)C2(C)C)C(C)(C)O3", "result": "35.4 µM"}
{"structure": "Cc1cn([C@H]2C[C@H](F)[C@@H](CO)O2)c(=O)[nH]c1=O", "result": "50 µM"}
{"structure": "COC(=O)C[C@@H]1C(=O)CC[C@H](C)C(=O)O[C@@H]2[C@@H]3[C@@H](OC(C)=O)[C@@]45O[C@@]3(C)COC(=O)c3cnccc3[C@@H](C)[C@](C)(O)C(=O)O[C@@H]([C@H](OC(C)=O)[C@H](OC(C)=O)[C@@]4(COC1=O)[C@@H]2OC(C)=O)C5(C)O", "result": ">100 µg/mL"}
{"structure": "CC(C)=CCC/C(C)=C/CC[C@@]1(C)C=Cc2c(cc(C)c(C(=O)O)c2O)O1", "result": "21.1 µg/mL"}
{"structure": "CC(C)=CCC/C(C)=C/C[N@@+]12CCc3cc(O)c(O)cc3[C@H]1Cc1ccc(O)c(O)c1C2", "result": ">25 µg/mL"}
{"structure": "O=C(O[C@@H]1Cc2c(O)cc(O)cc2O[C@@H]1c1cc(O)c(O)c(O)c1-c1c([C@H]2Oc3cc(O)cc(O)c3C[C@H]2O)cc(O)c(O)c1O)c1cc(O)c(O)c(O)c1", "result": "9.5 µg/mL"}
{"structure": "CC1(C)Oc2ccc3c(=O)c(-c4ccccc4)coc3c2[C@@H](OC(=O)C23CCC(C)(C(=O)O2)C3(C)C)[C@H]1OC(=O)C12CCC(C)(C(=O)O1)C2(C)C", "result": ">35.82 µM"}
{"structure": "COc1cc2c(c(OC)c1OC)-c1ccc(N(C)C)c(=O)cc1[C@@H](NC(C)=O)CC2", "result": "0.085 µM"}
{"structure": "CC1(C)O[C@@H]1COc1c2occc2cc2ccc(=O)oc12", "result": "20.1 µg/mL"}
{"structure": "[N-]=[N+]=N[C@@H]1C[C@H](n2ccc(=O)[nH]c2=O)O[C@@H]1CO", "result": ">100 µM"}
{"structure": "O=c1c(O)c(-c2ccc(O)cc2)oc2cc(O)cc(O)c12", "result": "50 µg/mL"}
{"structure": "CC(=O)OC[C@]12[C@H](OC(C)=O)[C@H](OC(C)=O)[C@@H]3[C@@H](OC(C)=O)[C@@]14O[C@@]3(C)COC(=O)c1cnccc1[C@@H](C)[C@@](C)(O)C(=O)O[C@@H]([C@H](OC(=O)c1ccoc1)[C@@H]2OC(C)=O)C4(C)O", "result": ">100 µg/mL"}
{"structure": "Cc1cn([C@H]2C[C@H](N=[N+]=[N-])[C@@H](CO)O2)c(=O)[nH]c1=O", "result": "1871 µM"}
{"structure": "COc1cc(C(=O)N[C@H]2CCc3cc(OC)c(OC)c(OC)c3-c3ccc(OC)c(=O)cc32)cc(OC)c1OC", "result": "0.04 µM"}
{"structure": "Cc1cc(=O)[nH]c2cc(O)ccc12", "result": "125 µM"}
{"structure": "COc1cc2c(c3ccccc3n2C)c2c(NCCCO)nccc12", "result": "0.15 µg/mL"}
{"structure": "O=c1c(O)c(-c2ccc(O)c(O)c2)oc2cc(O)cc(O)c12", "result": "<4 µg/mL"}
{"structure": "C#C[C@@]1(CO)C=C[C@H](n2cc(C)c(=O)[nH]c2=O)O1", "result": ">50 µM"}

Repeating the final 7 entries:

structure | result
CC(=O)OC[C@]12[C@H](OC(C)=O)[C@H](OC(C)=O)[C@@H]3[C@@H](OC(C)=O)[C@@]14O[C@@]3(C)COC(=O)c1cnccc1[C@@H](C)[C@@](C)(O)C(=O)O[C@@H]([C@H](OC(=O)c1ccoc1)[C@@H]2OC(C)=O)C4(C)O | >100 µg/mL
Cc1cn([C@H]2C[C@H](N=[N+]=[N-])[C@@H](CO)O2)c(=O)[nH]c1=O | 1871 µM
COc1cc(C(=O)N[C@H]2CCc3cc(OC)c(OC)c(OC)c3-c3ccc(OC)c(=O)cc32)cc(OC)c1OC | 0.04 µM
Cc1cc(=O)[nH]c2cc(O)ccc12 | 125 µM
COc1cc2c(c3ccccc3n2C)c2c(NCCCO)nccc12 | 0.15 µg/mL
O=c1c(O)c(-c2ccc(O)c(O)c2)oc2cc(O)cc(O)c12 | <4 µg/mL
C#C[C@@]1(CO)C=C[C@H](n2cc(C)c(=O)[nH]c2=O)O1 | >50 µM